Measurements reported in paper PMC3809513, “Imidazopyridazines as potent inhibitors of Plasmodium falciparum calcium-dependent protein kinase 1 (PfCDPK1): Preparation and evaluation of pyrazole linked analogues^” (Bioorganic & Medicinal Chemistry Letters, 2013).

Sequences of proteins named here, by UniProt entry; tags and fusion partners are left off.
UniProt P62344, whole entry: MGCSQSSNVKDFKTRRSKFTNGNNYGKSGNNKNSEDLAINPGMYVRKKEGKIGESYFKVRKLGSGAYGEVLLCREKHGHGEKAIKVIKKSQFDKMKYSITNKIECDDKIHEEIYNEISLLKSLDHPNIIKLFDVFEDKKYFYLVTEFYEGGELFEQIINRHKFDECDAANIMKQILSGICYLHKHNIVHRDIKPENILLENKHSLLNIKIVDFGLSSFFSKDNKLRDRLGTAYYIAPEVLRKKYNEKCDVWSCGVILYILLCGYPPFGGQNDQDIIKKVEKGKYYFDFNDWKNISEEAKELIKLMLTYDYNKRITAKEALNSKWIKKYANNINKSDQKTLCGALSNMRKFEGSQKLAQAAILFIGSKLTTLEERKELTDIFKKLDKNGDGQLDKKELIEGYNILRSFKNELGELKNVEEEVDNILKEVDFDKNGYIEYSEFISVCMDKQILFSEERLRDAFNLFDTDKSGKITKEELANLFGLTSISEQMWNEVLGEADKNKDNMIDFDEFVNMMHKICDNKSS

How the values were obtained:
P. falciparum = P. falciparum parasite growth assay (FACS, hydroethidine); format: cell-based, Plasmodium falciparum; settings: in vitro parasite growth, compounds added 24 h post-invasion, cells recovered 48 h later; for EC50: read-out: Pf EC50
Procedure: [12] P. falciparum EC50 values were measured using an in vitro model of malaria parasite growth. Compounds were diluted into 2% DMSO and added to parasites 24 h post-invasion in a 96-well plate and incubated under static conditions. Cells were recovered 48 h later and processed for FACS analysis using hydroethidine to stain parasite DNA. Data was acquired using a Guava easyCyte Plus flow cytometer with ExpressPro software. Growth inhibition was calculated using the following formula: % growth inhibition = (1 − [parasitaemia of culture/parasitaemia of control culture]) × 100.

PfCDPK1 = PfCDPK1 (Plasmodium falciparum, UniProt P62344); test: PfCDPK1 enzyme inhibition; format: biochemical; settings: read-out: PfCDPK1 IC50

SMILES | EC50 (P. falciparum) | IC50 (PfCDPK1) | Pf EC50 (P. falciparum)
CN1CCC(Nc2ccc3ncc(-c4cnn(-c5ccc(F)cc5)c4)n3n2)CC1 | 561 nM | 45 nM | 
CN1CCC(Nc2ccc3ncc(-c4cnn(-c5ccccc5)c4)n3n2)CC1 |  | 71 nM | sub-micromolar
CN1CCC(Nc2ccc3ncc(-c4cnn(-c5cccc(F)c5)c4)n3n2)CC1 | 394 nM | 138 nM | 
